Measured values from several laboratories, pooled; numbers as filed in NIAID ChemDB.

Common to all: whole-cell or culture tests; organism: Mycobacterium tuberculosis

For "inactive" no cut-off is given.

SMILES,dose,endpoint,cells,method,changes,conditions,strain or isolate,value
Fc1ccc(-n2cc(CNC3c4ccccc4-c4ccccc43)nn2)cc1,,MIC99,,broth dilution,,,H37Rv,281 µM
Cc1cc(NC(=O)c2ccc(N)cc2)ccc1N=Nc1ccc(N=Nc2cc(S(=O)(=O)O)ccc2S(=O)(=O)O)c(C)c1,12.5 µg/mL,inhibition,,BACTEC,,,H37Rv,11%
O=C(O)CCC(=O)SCC1CS1,,MIC,,,,,H37Rv,25 µg/mL
O=Cc1ccc2cccnc2c1O,,MIC50,,,,,M 607,>25 µg/mL
CC(=O)OCC1CC(c2ccccc2)N(c2ccccc2)O1,6.25 µg/mL,inhibition,,,,,H37Rv,inactive
O=C1C2=C(c3ccccc31)C(c1ccccc1)N1C(=O)CSC1=N2,12.5 µg/mL,inhibition,,BACTEC,,,H37Rv,35%
CC(=O)C1=C(O)c2c(C)cc(C)nc2S(=O)(=O)N1,,EC50,,,,,H37Rv,>12.5 µg/mL
CC1=NN(C(=O)c2ccncc2)C(=O)C1,,MIC bound,,resazurin,,,H37Rv,>6.25 µg/mL
CC(=O)CCC(=O)SCC1CS1,,MIC,,,,,H37Rv,25 µg/mL
CCOC(=O)c1cc2sc(NC(=O)c3ccco3)nc2o1,12.5 µg/mL,inhibition,,BACTEC,,,H37Rv,43%
Cc1csc(NC(=O)c2cnc(C(C)(C)C)c(Cl)n2)n1,6.25 µg/mL,inhibition,,,,,H37Rv,52%
C=C/C(C)=C/[C@@]1(C)SC(=O)C(C)=C1O,,MIC,,,,,Isolate M304,20 µg/mL
CC(=O)SCC1CS1,,MIC,,,,,H37Rv,0.4–0.8 µg/mL
Cc1cc(C)c2c(=O)n(CO)sc2n1,12.5 µg/mL,inhibition,,,,,H37Rv,61%
O=C1NC(NNC(=O)c2ccncc2)=N/C1=C\c1ccc(Cl)cc1,,MBC,,,,,Rifampicin-resistant,25 µg/mL
COc1ccc2nc(C)cc(-c3cnccc3C(=O)NC(=S)N=N)c2c1,,MIC,,,,,H37Rv,5 µg/mL
C[C@H]1COc2c(N3CCN(C)CC3)c(F)cc3c(=O)c(C(=O)O)cn1c23,,MIC,,resazurin,gyrB mutant fluoroquinolone resistant,,FQ-R1,10 µg/mL
NNC(=O)c1ccncc1,,MIC,,,,,H37RV (DL8280-R),0.05 µg/mL
CC(C)=CCC/C(C)=C/CC1(C)SC(=O)C(C)=C1O,,MIC90,,,,,H37Rv,200 µM
CC(=O)NS(=O)(=O)c1ccc(N=Nc2c(O)n(-c3ccccc3)n(-c3ccccc3)c2=O)cc1,,MIC,,BACTEC,,,H37Rv,≥12.8 µg/mL
CC(=O)OC1CC(c2ccccc2)N(c2ccccc2)O1,6.25 µg/mL,inhibition,,,,,H37Rv,59%
CO[C@H]1/C=C/O[C@@]2(C)Oc3c(C)c(O)c4c(O)c(c(/C=N/N5CCN(C)CC5)c(O)c4c3C2=O)NC(=O)/C(C)=C\C=C\[C@H](C)[C@H](O)[C@@H](C)[C@@H](O)[C@@H](C)[C@H](OC(C)=O)[C@@H]1C,,MIC,,resazurin,gyrB mutant fluoroquinolone resistant,,FQ-R1,0.017 µg/mL
CN[C@@H]1[C@H](O[C@H]2[C@H](O[C@H]3[C@H](O)[C@@H](O)[C@H](N=C(N)N)[C@@H](O)[C@@H]3N=C(N)N)O[C@@H](C)[C@]2(O)C=O)O[C@@H](CO)[C@H](O)[C@H]1O,,MIC,,,,,104396,≥2 µg/mL
Cc1cnc(NC(=O)c2cncc(Cl)n2)s1,6.25 µg/mL,inhibition,,,,,H37Rv,15%
Cc1ccc(-c2n[nH]c(=O)n2-n2c(C)ccc2C)cc1,,MIC,,,,,11.146,5.16 µg/mL
COc1ccc(/C=C/C(=O)c2ccncc2)cc1OC,,EC90,,resazurin,,,H37Rv,≥50 µg/mL
CO[C@@]1(NC(=O)Cc2cccs2)C(=O)N2C(C(=O)O)=C(COC(N)=O)CS[C@@H]21,,MIC,,,,,Isolate 3,>16 µg/mL
CC1=C2[C@@H]3OC(=O)[C@H](C)[C@H]3CC[C@]2(C)C=C/C1=N\O,,MIC bound,,BACTEC,,,H37Rv,>12.8 µg/mL
CC1=C(O)C(C)(CCC(C)C)SC1=O,,MIC50,,,,,H37Rv,230 µM
COc1ccc(OC)c(NC(=O)Nc2c(C)n(C)n(-c3ccccc3)c2=O)c1,12.8 µg/mL,inhibition,,BACTEC,,,H37Rv,19%
NNC(=O)c1ccncc1,,MIC,,,,,1S,0.1 µg/mL
CO[C@H]1/C=C/O[C@@]2(C)Oc3c(C)c(O)c4c(O)c(c(/C=N/N5CCN(C)CC5)c(O)c4c3C2=O)NC(=O)/C(C)=C\C=C\[C@H](C)[C@H](O)[C@@H](C)[C@@H](O)[C@@H](C)[C@H](OC(C)=O)[C@@H]1C,,MIC,,,,,84396,≥2 µg/mL
Cc1ccc(C)n1NC(=O)c1ccc(Cl)cc1,,MIC,,,,,Erdman,32 µg/mL
CCOc1ccc2ccccc2c1C(=O)N[C@@H]1C(=O)N2[C@@H]1SC(C)(C)[C@@H]2C(=O)O,,MIC,,,,,Isolate 5,>16 µg/mL
CC(=O)OCC1OC(n2c(=S)n(-c3ccccc3)c(=O)c3ccccc32)C(OC(C)=O)C(OC(C)=O)C1OC(C)=O,12.5 µg/mL,inhibition,,BACTEC,,,H37Rv,10%
COc1cc(-n2cc(CS(=O)(=O)C3c4ccccc4-c4ccccc43)nn2)cc(OC)c1OC,,MIC99,,broth dilution,,,H37Rv,52.35 µM
CC(=O)OC1CC(c2cccc(Br)c2)N(c2ccccc2)O1,6.25 µg/mL,inhibition,,,,,H37Rv,91%
O=C1NC(NNC(=O)c2ccncc2)=N/C1=C\c1cccc(Cl)c1,,EC99,,colony count,,inside macrophages,Erdman,>50 µg/mL
Cc1ccnc2c(O)cccc12,,MIC50,,,,,M 607,5–10 µg/mL
CC1COc2c(N3CCN(C)CC3)c(F)cc3c(=O)c(C(=O)O)cn1c23,,MIC,,,,,H37RV (INH-R),0.63–1.25 µg/mL
C=C(C)[C@@H]1CC[C@]2(C)CCC3(C)[C@H](CC[C@@H]4[C@@]5(C)CC[C@H](O)C(C)(C)[C@@H]5CC[C@]43C)[C@@H]12,,MIC,,,,,H37Rv,>128 µg/mL
CC(C)(C)c1ncc(C(=O)Nc2cc(Br)c(O)c(Br)c2)nc1Cl,6.25 µg/mL,inhibition,,,,,H37Rv,72%
COC(=O)c1cc(=O)c2scc(C)[n+]2[nH]1.[Cl-],,MIC bound,,BACTEC,,,H37Rv,>12.5 µg/mL
O=C1NC(=Nc2ccc(Cl)cc2Cl)N/C1=C\c1ccc(Cl)cc1Cl,,MIC,VERO,,,,H37Rv,>12.5 µg/mL
O=[N+]([O-])c1ccccc1-n1cc(CNC2c3ccccc3-c3ccccc32)nn1,,MIC99,,broth dilution,,,H37Rv,261 µM
CC(=O)OCC1CC(c2ccc([N+](=O)[O-])cc2)N(c2ccccc2)O1,6.25 µg/mL,inhibition,,,,,H37Rv,inactive
O=C1OC2(CCCCC2)Cc2oc3ccccc3c(=O)c21,,MIC bound,,BACTEC,,,H37Rv,>12.5 µg/mL
O=C(O)c1cc(O)c2ncccc2c1,,MIC50,,,,,M 607,>25 µg/mL
CCCC(=O)SCC1CS1,,MIC,,,,,H37Rv,6.25–12.5 µg/mL
O=[N+]([O-])c1cc(F)ccc1-n1cc(CSC2c3ccccc3-c3ccccc32)nn1,,MIC99,,broth dilution,,,H37Rv,>239 µM
CC(C)(C)C(=O)NNC(=O)c1ccncc1,,MIC,,,,,H37Rv,5 µg/mL
O=C(/C=C/c1ccc(Cl)cc1Cl)c1ccncc1,,EC90,,resazurin,,,H37Rv,≥50 µg/mL
CCN(CC)CCOC(=O)c1ccc2cccnc2c1O,,MIC50,,,,,M 607,>25 µg/mL
CCCCN(CCCC)c1cc(=O)nc2ccccn12,6.25 µg/mL,inhibition,,resazurin,,,H37Rv,8%
NNC(=O)c1ccncc1,,MIC,,,,,2230,>4 µg/mL
O=S(=O)(O)c1ccc2c(c1)C(C(Cl)(Cl)Cl)OC(C(Cl)(Cl)Cl)O2,6.25 µg/mL,inhibition,,resazurin,,,H37Rv,6%
CONc1ncnc2c1n(C/C=C(\C)CC/C=C(\C)CCC1CCCCC1)c[n+]2C,,MIC,,,,,,1.56 µg/mL
CCOP(=O)(OCC)Oc1ccc(S(C)=O)cc1,,MIC bound,,resazurin,,,H37Rv,>6.25 µg/mL
Nc1ccc(C(=O)O)c(O)c1,,MIC,,,,,H37Rv,0.1 µg/mL
COC(=O)C1(CC[N+](=O)[O-])N=C(c2ccccc2)OC1C,12.5 µg/mL,inhibition,,BACTEC,,,H37Rv,42%
FC(F)(F)c1ccc(-n2cc(CNC3c4ccccc4-c4ccccc43)nn2)cc1,,MIC99,,broth dilution,,,H37Rv,123.3 µM
CC(C)=CCC/C(C)=C/CC/C(C)=C/CC1(C)SC(=O)C(C)=C1O,,MIC50,,,,,H37Rv,23 µM
COc1cc(NC(=O)c2cnc(C(C)(C)C)cn2)cc(OC)c1,6.25 µg/mL,inhibition,,,,,H37Rv,5%
c1cc2c(s1)CCOC21CCN(Cc2ccc3c(c2)OCCO3)CC1,,fold resistance,,fluorescence,MmpL3: Tyr252Cys,,H37Rv,≥33.3
O=C1NC(NNC(=O)c2ccncc2)=N/C1=C\c1ccccc1Cl,,MIC,,,,,Ciprofloxacin-resistant,≤1.56 µg/mL
COc1cc2cccnc2c2[nH]c(=O)c3c(c12)CCC3,,MIC bound,,BACTEC,,,H37Rv,>12.5 µg/mL
O=C(CCl)SCC1CS1,,MIC,,,,,H37Rv,25 µg/mL
CC(C)(C)c1cnc(C(=O)Nc2nccs2)cn1,6.25 µg/mL,inhibition,,,,,H37Rv,47%
Cc1cc(C)nc(NS(=O)(=O)c2ccc(NC(=O)C(C)(C)C)cc2)n1,,MIC,,,,,H37Rv,10 µg/mL
C=CCN1C(=O)c2c(C)cc(C)nc2S1(=O)=O,12.5 µg/mL,inhibition,,,,,H37Rv,0%
CC(=O)OCC1=C(C(=O)O)N2C(=O)[C@@H](NC(=O)Cc3cccs3)[C@H]2SC1,,MIC,,,,,Isolate 4,>16 µg/mL
Cc1cc(O)c2c(c1)C(=O)C(c1c(C)cc3c(c1O)C(=O)C=CC3=O)=CC2=O,,MIC,,,,,H37Rv,8 µg/mL
CC(=O)OC1CC(c2ccc([N+](=O)[O-])cc2)N(c2ccccc2)O1,6.25 µg/mL,inhibition,,,,,H37Rv,99%
CC1(C)[C@H](C(=O)O)N2C(=O)C[C@H]2S1(=O)=O,,MIC,,,,,Isolate 1,>16 µg/mL
O=C(Nc1ccccc1-c1nn(C(=S)Nc2ccccc2)c(=S)n(C(=S)Nc2ccccc2)c1=O)C(F)(F)F,,MIC,,resazurin,,,H37Rv,>12.5 µg/mL
Cc1ccc(C)n1NC(=O)c1ccc(Br)cc1,,MIC,,,,,Erdman,32 µg/mL
CC(=O)C1=C(O)c2c(C)cc(C)nc2S(=O)(=O)N1CC(=O)c1ccccc1,,MIC,,,,,H37Rv,>12.5 µg/mL
CN[C@@H]1[C@H](O[C@H]2[C@H](O[C@H]3[C@H](O)[C@@H](O)[C@H](NC(N)=O)[C@@H](O)[C@@H]3NC(N)=O)O[C@@H](C)[C@]2(O)CO)O[C@@H](CO)[C@H](O)[C@H]1O,,MIC,,,,,666,25 µg/mL
CN[C@@H]1[C@H](O[C@H]2[C@H](O[C@H]3[C@H](O)[C@@H](O)[C@H](N=C(N)N)[C@@H](O)[C@@H]3N=C(N)N)O[C@@H](C)[C@]2(O)C=O)O[C@@H](CO)[C@H](O)[C@H]1O,,MIC,,,,,H37RV (DL8280-R),5 µg/mL
CCOc1ccc2c(c1)[n+]([O-])c(S(=O)(=O)c1ccc(C)cc1)c(N)[n+]2[O-],12.5 µg/mL,inhibition,,BACTEC,,,H37Rv,97%
COc1cc(/C=C/C(=O)c2ccncc2)cc(OC)c1OC,,EC90,,resazurin,,,H37Rv,≥50 µg/mL
O=C(OCC(S)CS)c1cccc2ccccc12,,MIC,,,,,H37Rv,50 µg/mL
CONc1ncnc2c1n(C/C=C(\C)CC/C=C(\C)CC/C=C(\C)CCC=C(C)C)c[n+]2C,6.25 µg/mL,inhibition,,,,,,100%
Cc1ccc(Nc2nc3c(=O)n(C)c(=O)n(C)c3nc2Nc2ccc(C)cc2)cc1,,MIC bound,,BACTEC,,,H37Rv,>12.5 µg/mL
Cc1cc(C)c2c(=O)n(CC(N)=O)sc2n1,12.5 µg/mL,inhibition,,,,,H37Rv,24%
c1ccc(-c2[nH]c(-c3ccccc3)c(-c3cnccn3)c2-c2cnccn2)cc1,12.5 µg/mL,inhibition,,BACTEC,,,H37Rv,0%
O=C(O)CCCc1ccc(O)c2ncccc12,,MIC50,,,,,H37Rv,5–10 µg/mL
CC(=O)NC[C@H]1CN(c2ccc(N3CCOCC3)c(F)c2)C(=O)O1,,MIC,,,,,8S,0.5 µg/mL
CCCCn1cnc2ccc3nc(-c4ccccc4)c(-c4ccccc4)nc3c2c1=O,,MIC bound,,BACTEC,,,H37Rv,>12.5 µg/mL
CC(C)=CCC1(C)SC(=O)C(C)=C1O,,MIC90,,,,,H37Rv,>300 µM

Fold resistance has wild type as its base. Two numbers with a dash give a range or band. ECn is the concentration giving n% inhibition of infection, replication or growth. Conditions beyond the fields shown may differ between rows. MIC bound: limit read from a one-dose screen. An empty or dashed field is not shown. A number after MIC or MFC names an inhibition level or a share of isolates. Inhibition is in % at the dose shown (toxicity tests: loss of growth or viability).